SMILES strings stand for the structures.

This assay relates to C. glabrata YEM19 (over-expressing the CgCDR1 and CgCDR2 pumps). As to the kind of experiment: checkerboard assay / broth microdilution, potentiation of fluconazole vs. C. glabrata. The following applies: Nakaseomyces glabratus, 48 h. On the technique in general: Dilution methods test growth across graded concentrations, often in twofold steps.
For the compound `COC(=O)N[C@@H]1CCN(C(=O)N2CCN(n3c(C(C)N(C(=O)Nc4ccc(F)cc4)c4ccc(OC)cc4OC)nc4ccccc4c3=O)CC2)C1` (mixture of isomers) [Compound 235], the MIC was greater than 32 µg/mL.
With `COc1ccc(N(C(=O)Nc2ccc(OC(F)F)cc2)C(C)c2nc3cc(F)c(F)cc3c(=O)n2N2CCN(C)CC2)c(OC)c1` (racemic) [Compound 224] the figure was greater than 32 µg/mL; with `COc1ccc(N(C(=O)Nc2ccc3c(c2)OCO3)C(C)c2nc3cc(Cl)ccc3c(=O)n2N2CCN(C)CC2)c(OC)c1` (racemic) [Compound 228], greater than 32 µg/mL; with `COC(=O)NC1CCCC1C(=O)N1CCN(n2c(C(C)N(C(=O)Nc3ccc(F)cc3)c3ccc(OC)cc3OC)nc3ccccc3c2=O)CC1` (racemic) [Compound 232], greater than 32 µg/mL.
Consider `COC(=O)N[C@H]1CCN(C(=O)N2CCN(n3c(C(C)N(C(=O)Nc4ccc(F)cc4)c4ccc(OC)cc4OC)nc4ccccc4c3=O)CC2)C1` (mixture of isomers) [Compound 237], for which the MIC is greater than 32 µg/mL.
`COc1ccc(N(C(=O)Nc2ccc(F)cc2)C(C)c2nc3cc(F)c(F)cc3c(=O)n2N2CCN(C(=O)C(C)(C)N)CC2)c(OC)c1` (centres unmarked) [Compound 326]: the MIC was greater than 32 µg/mL.
For `COc1ccc(N(C(=O)Nc2ccc(F)cc2)C(C)c2nc3cc(Cl)ccc3c(=O)n2N2CCN(C(=O)[C@@H]3CCCN3)CC2)c(OC)c1` (mixture of isomers) [Compound 239], the MIC is greater than 32 µg/mL.
With `COc1ccc(N(C(=O)Nc2cccc(Cl)c2)C(C)c2nc3cc(F)c(F)cc3c(=O)n2N2CCN(C)CC2)c(OC)c1` (racemic) [Compound 220] the figure was greater than 32 µg/mL; with `COc1ccc(N(C(=O)Nc2cccc(F)c2)C(C)c2nc3cc(Cl)ccc3c(=O)n2N2CCN(C)CC2)c(OC)c1` (racemic) [Compound 223], 32 µg/mL; with `COc1ccc(N(C(=O)Nc2ccc(F)cc2)C(C)c2nc3ccccc3c(=O)n2N2CCN(C(=O)[C@@H]3CCC(=O)N3)CC2)c(OC)c1` (mixture of isomers) [Compound 260], greater than 32 µg/mL.
With `COc1ccc(N(C(=O)Nc2ccc(F)cc2)C(C)c2nc3ccccc3c(=O)n2N2CCN(C(=O)C3CCN(S(=O)(=O)N(C)C)C3)CC2)c(OC)c1` (racemic) [Compound 251] the figure was greater than 32 µg/mL; with `COc1ccc(N(C(=O)Nc2ccc(F)cc2)C(C)c2nc3ccccc3c(=O)n2N2CCN(C(=O)[C@@H](NS(C)(=O)=O)[C@H](C)O)CC2)c(OC)c1` (mixture of isomers) [Compound 273], greater than 32 µg/mL; with `COC(=O)NC1CCN(C(=O)N2CCN(n3c(C(C)N(C(=O)Nc4ccc(F)cc4)c4ccc(OC)cc4OC)nc4ccccc4c3=O)CC2)C1` (racemic) [Compound 234], greater than 32 µg/mL.
Then `COc1ccc(N(C(=O)Nc2ccc(F)cc2)C(C)c2nc3ccccc3c(=O)n2N2CCN(C(=O)C3CCCC3N)CC2)c(OC)c1` (racemic) [Compound 231], with greater than 32 µg/mL.
For the compound `COc1ccc(N(C(=O)Nc2ccc(F)cc2)C(C)c2nc3ccccc3c(=O)n2N2CCN(C(=O)c3nccnc3N)CC2)c(OC)c1` (racemic) [Compound 241], the MIC is greater than 32 µg/mL.
In the case of `COc1ccc(N(C(=O)Nc2ccc(F)cc2)C(C)c2nc3ccccc3c(=O)n2N2CCN(C(=O)CNS(C)(=O)=O)CC2)c(OC)c1` (racemic) [Compound 325], the MIC was greater than 32 µg/mL.
As to `COc1ccc(N(C(=O)Nc2ccc(F)cc2)C(C)c2nc3ccccc3c(=O)n2N2CCN(C(=O)C3CCCO3)CC2)c(OC)c1` (racemic) [Compound 247], the minimum inhibitory concentration (MIC) was greater than 32 µg/mL.
In the case of `CC[C@H](N)C(=O)N1CCN(n2c(C(C)N(C(=O)Nc3ccc(F)cc3)c3ccc(OC)cc3OC)nc3cc(F)ccc3c2=O)CC1` (mixture of isomers) [Compound 283], the MIC is greater than 32 µg/mL.
Turning to `COc1ccc(N(C(=O)Nc2ccc(OC(F)F)cc2)C(C)c2nc3cc(Cl)ccc3c(=O)n2N2CCN(C)CC2)c(OC)c1` (racemic) [Compound 225], the MIC was 32 µg/mL.
As for `COC(=O)N[C@@H](CO)C(=O)N1CCN(n2c(C(C)N(C(=O)Nc3ccc(F)cc3)c3ccc(OC)cc3OC)nc3ccccc3c2=O)CC1` (mixture of isomers) [Compound 278], the MIC is greater than 32 µg/mL.
For the compound `COc1ccc(N(C(=O)Nc2ccc(F)cc2)C(C)c2nc3ccccc3c(=O)n2N2CCN(C(=O)C(C)(C)N)CC2)c(OC)c1` (racemic) [Compound 330], the MIC is greater than 32 µg/mL.
With `CC[C@H](N)C(=O)N1CCN(n2c(C(C)N(C(=O)Nc3ccc(F)cc3)c3ccc(OC)cc3OC)nc3ccccc3c2=O)CC1` (mixture of isomers) [Compound 284] the figure was greater than 32 µg/mL; with `CCOC(=O)N[C@@H](CCS(C)(=O)=O)C(=O)N1CCN(n2c(C(C)N(C(=O)Nc3ccc(F)cc3)c3ccc(OC)cc3OC)nc3ccccc3c2=O)CC1` (mixture of isomers) [Compound 275], greater than 32 µg/mL.
As to `COc1ccc(N(C(=O)Nc2cccc(Cl)c2)C(C)c2nc3cc(Cl)ccc3c(=O)n2N2CCN(C)CC2)c(OC)c1` (racemic) [Compound 222], the MIC is 16 µg/mL.
Take `COC(=O)N[C@H](C(=O)N1CCN(n2c(C(C)N(C(=O)Nc3ccc(F)cc3)c3ccc(OC)cc3OC)nc3ccccc3c2=O)CC1)[C@H](C)O` (some centres unmarked) [Compound 268]: the MIC is greater than 32 µg/mL.
Then `COC(=O)N1CCC(C(=O)N2CCN(n3c(C(C)N(C(=O)Nc4ccc(F)cc4)c4ccc(OC)cc4OC)nc4ccccc4c3=O)CC2)C1` (racemic) [Compound 249], with greater than 32 µg/mL; and `COc1ccc(N(C(=O)Nc2ccc(Cl)cc2)C(C)c2nc3cc(F)ccc3c(=O)n2N2CCN(C)CC2)c(OC)c1` (racemic) [Compound 216], with greater than 32 µg/mL.
As for `COc1ccc(N(C(=O)Nc2ccc(C#N)cc2)C(C)c2nc3cc(Cl)ccc3c(=O)n2N2CCN(C)CC2)c(OC)c1` (racemic) [Compound 227], the MIC is greater than 32 µg/mL.
In the case of `COC(=O)N[C@@H](C)C(=O)N1CCN(n2c(C(C)N(C(=O)Nc3ccc(F)cc3)c3ccc(OCC4CC4)cc3OCC3CC3)nc3ccccc3c2=O)CC1` (mixture of isomers) [Compound 348], the MIC is greater than 32 µg/mL.
With `COc1ccc(N(C(=O)Nc2ccc(F)cc2)C(C)c2nc3ccccc3c(=O)n2N2CCN(C(=O)C3CCCNC3)CC2)c(OC)c1` (racemic) [Compound 254] the figure was greater than 32 µg/mL; with `COC(=O)N[C@@H]1CCN(C(=O)N2CCN(n3c(C(C)N(C(=O)Nc4ccc(F)cc4)c4ccc(OC)cc4OC)nc4cc(F)c(F)cc4c3=O)CC2)C1` (mixture of isomers) [Compound 236], greater than 32 µg/mL.
With `COc1ccc(N(C(=O)Nc2ccc(F)cc2)C(C)c2nc3ccccc3c(=O)n2N2CCN(C(=O)C3CCN(S(C)(=O)=O)C3)CC2)c(OC)c1` (racemic) [Compound 250] the figure was greater than 32 µg/mL.
On to `COc1ccc(N(C(=O)Nc2ccc(F)cc2)C(C)c2nc3cc(Cl)ccc3c(=O)n2N2CCN(C(=O)C[C@H]3CCCN3)CC2)c(OC)c1` (mixture of isomers) [Compound 314], for which the minimal inhibitory concentration (MIC) was greater than 32 µg/mL.
Turning to `COc1ccc(N(C(=O)Nc2ccc(F)cc2)C(C)c2nc3ccccc3c(=O)n2N2CCN(C(=O)C3CCCCN3)CC2)c(OC)c1` (racemic) [Compound 243], the MIC was determined as 16 µg/mL.
With `COc1ccc(N(C(=O)Nc2ccc(F)cc2)C(C)c2nc3ccccc3c(=O)n2N2CCN(C(=O)[C@H](CCS(C)(=O)=O)NC(=O)C(F)F)CC2)c(OC)c1` (mixture of isomers) [Compound 277], the MIC is greater than 32 µg/mL.
Take `COc1ccc(N(C(=O)Nc2ccc(F)cc2)C(C)c2nc3ccccc3c(=O)n2N2CCN(C(=O)C3CNCCN3)CC2)c(OC)c1` (racemic) [Compound 242]: the MIC is greater than 32 µg/mL.
On to `COc1ccc(N(C(=O)Nc2ccc(F)cc2)C(C)c2nc3ccccc3c(=O)n2N2CCN(C(=O)[C@@H]3CCCN3C)CC2)c(OC)c1` (mixture of isomers) [Compound 246], for which the minimal inhibitory concentration (MIC) was greater than 32 µg/mL.
Consider `COC(=O)NCC(=O)N1CCN(n2c(C(C)N(C(=O)Nc3ccc(F)cc3)c3ccc(OC)cc3OC)nc3ccccc3c2=O)CC1` (centres unmarked) [Compound 324], for which the MIC is greater than 32 µg/mL.
As for `COc1ccc(N(C(=O)Nc2ccc(F)cc2)C(C)c2nc3ccccc3c(=O)n2N2CCN(C(=O)[C@H](Cc3c[nH]cn3)NC(=O)OC(C)(C)C)CC2)c(OC)c1` (mixture of isomers) [Compound 274], the MIC is greater than 32 µg/mL.
Regarding `CC(c1nc2ccccc2c(=O)n1N1CCN(C(=O)[C@H](C)N)CC1)N(C(=O)Nc1ccc(F)cc1)c1ccc(OCC2CC2)cc1OCC1CC1` (mixture of isomers) [Compound 347], the MIC is greater than 32 µg/mL.
Take `COC(=O)N[C@@H](CCS(C)(=O)=O)C(=O)N1CCN(n2c(C(C)N(C(=O)Nc3ccc(F)cc3)c3ccc(OC)cc3OC)nc3ccccc3c2=O)CC1` (mixture of isomers) [Compound 276]: the MIC is greater than 32 µg/mL.
Then `CC(c1nc2ccccc2c(=O)n1N1CCN(C(=O)[C@@H]2CCCN2)CC1)N(C(=O)Nc1ccc(F)cc1)c1ccc(OCC2CC2)cc1` (mixture of isomers) [Compound 346], with greater than 32 µg/mL.
Regarding `COc1ccc(N(C(=O)Nc2ccc(F)cc2)C(C)c2nc3ccccc3c(=O)n2N2CCN(C(=O)C3CCNC3)CC2)c(OC)c1` (racemic) [Compound 248], the MIC is greater than 32 µg/mL.
`COc1ccc(N(C(=O)Nc2ccc(C#N)cc2)C(C)c2nc3ccccc3c(=O)n2N2CCN(C)CC2)c(OC)c1` (centres unmarked) [Compound 213]: the MIC was greater than 32 µg/mL.
Turning to `COc1ccc(N(C(=O)Nc2ccc(F)cc2)C(C)c2nc3ccccc3c(=O)n2N2CCN(c3nncs3)CC2)c(OC)c1` (racemic) [Compound 229], the MIC was greater than 32 µg/mL.
With `COc1ccc(N(C(=O)Nc2cccc(Cl)c2)C(C)c2nc3cc(F)ccc3c(=O)n2N2CCN(C)CC2)c(OC)c1` (racemic) [Compound 215], the MIC is greater than 32 µg/mL.
Turning to `CC(c1nc2ccccc2c(=O)n1N1CCN(C(=O)[C@@H]2CCCN2)CC1)N(C(=O)Nc1ccc(F)cc1)c1ccccc1OCC1CC1` (mixture of isomers) [Compound 345], the MIC is greater than 32 µg/mL.
With `COc1ccc(N(C(=O)Nc2ccc(OC(F)F)cc2)C(C)c2nc3ccccc3c(=O)n2N2CCN(C)CC2)c(OC)c1` (centres unmarked) [Compound 214] the figure was greater than 32 µg/mL; with `COc1ccc(N(C(=O)Nc2ccc(F)cc2)C(C)c2nc3ccccc3c(=O)n2N2CCN(C(=O)[C@@H]3CCCN3C3CC3)CC2)c(OC)c1` (mixture of isomers) [Compound 245], greater than 32 µg/mL; with `COc1ccc(N(C(=O)Nc2ccc(F)cc2)C(C)c2nc3ccc(Cl)cc3c(=O)n2N2CCN(C(=O)C3CCCN3)CC2)c(OC)c1` (racemic) [Compound 238], greater than 32 µg/mL.

As a reminder, the MIC is the lowest concentration that inhibits growth of the organism.

These data come from US6689782B2, “Fungal efflux pump inhibitors” (priority 2001, dated 2004).
